# System: Fumonisin FB1 production
# Test: Inhibition of Fumonisin FB1 produced by Fusarium proliferatum
# Type: cell-based
# Settings: table O
SMILES,% inhibition FB1 production (dose 50 μM),inhibition at 50 µM
Cn1nc(C(F)F)c(C(=O)NCCc2ncc(C(F)(F)F)cc2Cl)c1F [Example 187],100%,–
"COC(c1ccc(Cl)cc1Cl)C(C)NC(=O)c1c(C(F)F)nn(C)c1F (stereo not shown) [Example 73, N-[1-(2,4-dichlorophenyl)-1-methoxypropan-2-yl]-3-(difluoromethyl)-5-fluoro-1-methyl-1H-pyrazole-4-carboxamide]",–,100%
"CC(Cc1ncc(C(F)(F)F)cc1Cl)NC(=O)c1c(C(F)F)nn(C)c1F (stereo not shown) [Example 190, N-{1-[3-chloro-5-(trifluoromethyl)pyridin-2-yl]propan-2-yl}-3-(difluoromethyl)-5-fluoro-1-methyl-1H-pyrazole-4-carboxamide]",–,100%
"CC(Cc1ncc(C(F)(F)F)cc1Cl)N(C(=O)c1c(C(F)F)nn(C)c1F)C1CC1 (stereo not shown) [Example 188, N-{1-[3-chloro-5-(trifluoromethyl)pyridin-2-yl]propan-2-yl}-N-cyclopropyl-3-(difluoromethyl)-5-fluoro-1-methyl-1H-pyrazole-4-carboxamide]",–,99%
